From patent publication US20230045284A1

Molecular target: Total cellular Ras (all isoforms KRas, HRas and NRas, endogenous, in human cell lines)
Assay: cell-based or functional assay

“RRSP-DTB (RRSP fused via a (G4S)2 linker to diphtheria toxin residues 186-535, DTT-DTR) (from UniProt P00588 186-535) (enzyme)” was tested. Which concentration inhibiting cell proliferation, KRAS-mutant PDAC cell lines did it give?
Its concentration inhibiting cell proliferation, KRAS-mutant PDAC cell lines is 63 picomolar and 181 picomolar.

Values joined by “and” are separate entries in the source; they are usually repeats but may differ in a detail not shown here. Equal values may be shown once.
